Consider seven molecules from PMC7397076 (Molecules, 2020).

This series concerns Vero cell line. The series can be described thus: Cytotoxicity test, MTT assay. Particulars: Vero IC50 / M. tuberculosis MIC. It counts as cell-based, African green monkey.

Regarding `O=C(N/N=C/c1cccc2ccccc12)c1ccc(Oc2ccccc2)cc1` [Compound 8g, (E)-N′-(Naphthalen-1-ylmethylene)-4-phenoxybenzohydrazide], the “SI (IC50/MIC)” value is reported as 73.67.
As for `c1ccc(Oc2ccc(-c3nnc(-c4cccs4)o3)cc2)cc1` [Compound 6k, 2-(4-Phenoxyphenyl)-5-(thiophen-2-yl)-1,3,4-oxadiazole], the figure is 40.59; as for `c1ccc(Oc2ccc(-c3nnc(-c4ccncc4)o3)cc2)cc1` [Compound 6i, 2-(4-Phenoxyphenyl)-5-(pyridin-4-yl)-1,3,4-oxadiazole], 68.21.
As for `c1ccc(Oc2ccc(-c3nnc(-c4cccnc4)o3)cc2)cc1` [Compound 6h, 2-(4-Phenoxyphenyl)-5-(pyridin-3-yl)-1,3,4-oxadiazole], the figure is 65.29.
As for `NNC(=O)c1ccc(Oc2ccccc2)cc1` [Compound 3, 4-Phenoxybenzohydrazide], the figure is 93.83; as for `c1ccc(Oc2ccc(-c3nnco3)cc2)cc1` [Compound 4, 2-(4-Phenoxyphenyl)-1,3,4-oxadiazole], 162.95.
For `c1ccc(Oc2ccc(-c3nnc(-c4ccc(Oc5ccccc5)cc4)o3)cc2)cc1` [Compound 6l, 2,5-bis(4-Phenoxyphenyl)-1,3,4-oxadiazole], the “SI (IC50/MIC)” value amounted to 79.15.
